The values below come from PMC1513218 (BMC Pharmacology, 2006).

Sequences of proteins named here, by UniProt entry; tags and fusion partners are left off. Residues count along the entry.
UniProt P0DPI1, whole entry, looked up: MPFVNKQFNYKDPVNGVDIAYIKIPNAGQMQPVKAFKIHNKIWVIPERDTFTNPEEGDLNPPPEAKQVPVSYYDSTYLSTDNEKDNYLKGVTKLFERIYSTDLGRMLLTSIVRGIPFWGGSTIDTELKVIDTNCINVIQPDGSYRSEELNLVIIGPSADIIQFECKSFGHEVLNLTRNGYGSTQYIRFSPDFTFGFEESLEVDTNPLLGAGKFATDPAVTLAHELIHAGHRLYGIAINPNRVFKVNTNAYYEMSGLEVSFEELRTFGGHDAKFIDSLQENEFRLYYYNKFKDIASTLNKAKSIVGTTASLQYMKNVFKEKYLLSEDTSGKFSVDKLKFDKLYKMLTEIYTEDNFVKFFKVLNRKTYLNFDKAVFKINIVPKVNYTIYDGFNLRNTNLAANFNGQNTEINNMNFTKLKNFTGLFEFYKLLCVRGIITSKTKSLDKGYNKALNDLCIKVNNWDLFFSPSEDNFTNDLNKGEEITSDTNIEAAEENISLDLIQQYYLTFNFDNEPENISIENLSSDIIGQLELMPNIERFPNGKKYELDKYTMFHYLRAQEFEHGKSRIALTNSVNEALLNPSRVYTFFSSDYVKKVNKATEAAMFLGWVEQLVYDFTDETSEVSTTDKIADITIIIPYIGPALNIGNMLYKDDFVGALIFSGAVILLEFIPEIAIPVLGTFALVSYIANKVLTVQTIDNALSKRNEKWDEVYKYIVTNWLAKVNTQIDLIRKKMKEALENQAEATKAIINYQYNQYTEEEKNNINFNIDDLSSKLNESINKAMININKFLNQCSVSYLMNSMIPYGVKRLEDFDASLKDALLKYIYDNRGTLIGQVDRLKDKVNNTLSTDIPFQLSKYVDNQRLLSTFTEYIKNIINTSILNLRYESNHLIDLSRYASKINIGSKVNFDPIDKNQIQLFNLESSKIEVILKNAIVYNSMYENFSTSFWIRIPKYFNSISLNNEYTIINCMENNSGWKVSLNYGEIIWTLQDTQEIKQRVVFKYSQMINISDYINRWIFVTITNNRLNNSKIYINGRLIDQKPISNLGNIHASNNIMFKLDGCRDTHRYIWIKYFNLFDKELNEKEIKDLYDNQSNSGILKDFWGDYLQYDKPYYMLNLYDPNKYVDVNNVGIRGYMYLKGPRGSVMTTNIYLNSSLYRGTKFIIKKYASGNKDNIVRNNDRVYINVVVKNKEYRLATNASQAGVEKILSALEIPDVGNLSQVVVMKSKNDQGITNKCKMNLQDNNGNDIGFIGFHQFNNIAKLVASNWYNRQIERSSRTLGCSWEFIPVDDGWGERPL
UniProt P15917, 34-809 limits assumed: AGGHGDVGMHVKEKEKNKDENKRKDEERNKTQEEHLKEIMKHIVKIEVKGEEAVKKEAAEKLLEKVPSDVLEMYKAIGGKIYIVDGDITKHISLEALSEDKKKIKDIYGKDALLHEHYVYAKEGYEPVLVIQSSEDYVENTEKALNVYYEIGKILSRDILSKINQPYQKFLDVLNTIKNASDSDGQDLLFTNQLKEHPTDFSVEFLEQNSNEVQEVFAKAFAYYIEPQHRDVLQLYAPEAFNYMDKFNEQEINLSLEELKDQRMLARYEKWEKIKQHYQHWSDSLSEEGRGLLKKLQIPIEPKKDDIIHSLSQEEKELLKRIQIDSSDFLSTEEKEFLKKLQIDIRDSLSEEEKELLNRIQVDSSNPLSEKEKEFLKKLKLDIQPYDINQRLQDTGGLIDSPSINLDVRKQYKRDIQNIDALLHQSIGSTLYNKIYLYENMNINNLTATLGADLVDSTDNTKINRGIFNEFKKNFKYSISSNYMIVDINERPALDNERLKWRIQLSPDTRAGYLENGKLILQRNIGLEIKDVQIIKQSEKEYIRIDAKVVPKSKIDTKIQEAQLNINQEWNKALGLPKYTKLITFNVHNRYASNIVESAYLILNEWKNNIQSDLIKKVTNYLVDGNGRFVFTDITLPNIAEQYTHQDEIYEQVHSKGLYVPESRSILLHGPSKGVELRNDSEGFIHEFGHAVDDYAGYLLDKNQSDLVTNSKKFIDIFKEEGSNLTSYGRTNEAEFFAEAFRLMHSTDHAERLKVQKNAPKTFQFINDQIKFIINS

For assay [1], the target named is botulinum neurotoxin/A (BoNT/A) (Clostridium botulinum, UniProt P0DPI1). Kind of assay: Botulinum neurotoxin/A FRET substrate cleavage assay (SNAPtide). Particulars: read-out: Bot IC50; SNAPtide 12.5 μM. In kind it is biochemical.
In assay [2] the target is anthrax lethal factor (LF) protease (Bacillus anthracis, UniProt P15917). In words: Lethal Factor protease assay (FRET, MAPKKide substrate). It is filed as biochemical. Particulars: read-out: LF Kiapp; Mean ± SEM; MAPKKide 12.5 μM, LF 20 nM.

The structures appear in SMILES notation. Some results are limits rather than exact numbers.

What is called IC50 is the concentration that inhibits the measured activity by half. As to `CSCC[C@H](NC(=O)[C@H](CCCCN)NC(=O)[C@@H](NC(=O)[C@H](C)NC(=O)[C@H](CCCNC(=N)N)NC(=O)[C@H](CS)NC(C)=O)[C@@H](C)O)C(=O)N[C@@H](CC(C)C)C(N)=O`, in assay [1], the IC50 amounted to 3.5 µM. In addition, the Ki in assay [2] is more than 300 µM.
